From publication PMC12691669, “Inhibitors of the 20S proteasome β5 subunit as potent and selective agents against Trichomonas vaginalis” (Antimicrobial Agents and Chemotherapy, 2025)

Chains of the proteins cited; added tags and fusions are not shown. Residues count along the entry.
UniProt A2DD57, 54-256 limits assumed: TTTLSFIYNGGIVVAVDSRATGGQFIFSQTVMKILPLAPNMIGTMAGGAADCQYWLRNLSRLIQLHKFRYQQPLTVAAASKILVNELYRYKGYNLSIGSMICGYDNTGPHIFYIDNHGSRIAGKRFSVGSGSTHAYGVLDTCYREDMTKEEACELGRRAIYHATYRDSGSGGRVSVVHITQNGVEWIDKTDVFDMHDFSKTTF
UniProt A2F716, 12-224 limits assumed: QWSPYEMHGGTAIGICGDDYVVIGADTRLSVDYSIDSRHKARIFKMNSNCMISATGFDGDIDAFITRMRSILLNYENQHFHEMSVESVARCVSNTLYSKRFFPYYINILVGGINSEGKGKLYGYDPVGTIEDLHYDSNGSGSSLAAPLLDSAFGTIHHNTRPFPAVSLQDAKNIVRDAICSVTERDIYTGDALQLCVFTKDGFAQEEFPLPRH
UniProt A2E7Z2, 13-216 limits assumed: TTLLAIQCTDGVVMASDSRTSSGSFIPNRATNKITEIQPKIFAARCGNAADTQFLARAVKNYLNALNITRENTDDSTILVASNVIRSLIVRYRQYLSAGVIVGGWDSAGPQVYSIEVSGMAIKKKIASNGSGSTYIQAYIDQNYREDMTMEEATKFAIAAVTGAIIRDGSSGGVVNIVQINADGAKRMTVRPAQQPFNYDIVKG

What was measured:
[1] = target: T. vaginalis Tv20S proteasome β5 subunit (Trichomonas vaginalis, UniProt A2DD57+A2F716); settings: read-out: Tv20S proteasome inhibition of β5 subunit (IC50); recombinant Tv20S, mean ± SD of three experiments
[2] = target: T. vaginalis Tv20S proteasome β1 subunit (Trichomonas vaginalis, UniProt A2E7Z2); assay: In vitro proteasome assay, Ac-RYFD-amc substrate; format: biochemical; settings: recombinant Tv20S, mean ± SD of three experiments
Method: (§1) The T. vaginalis proteasome was expressed in recombinant form as previously described ([27]). Briefly, Spodoptera frugiperda cells were co-infected with three baculovirus vectors carrying the T. vaginalis genes for the 7 α-subunits, 7 β-subunits, and the Ump-1 chaperone, respectively. The resulting proteasome complex was purified from cell lysates via streptavidin column and size exclusion chromatography and stored at −80°C. Purified human c20S proteasome and recombinant human proteasome activator PA28α ([21]) were obtained from Bio-Techne and stored at −80°C. Dilutions of the test agents were transferred to 384-well plates (Greiner Bio-One) in triplicate wells using an Echo 650 Acoustic Liquid Handler (Beckman Coulter). Six replicate plates were prepared for each compound for testing with three T. vaginalis-optimized substrates and three human-optimized substrates. After dispensing, plates were sealed and stored at −20°C. The following fluorescent substrates and final substrate concentrations were used to assay subunit activities of the T. vaginalis proteasome (Tv20S) ([28]) or the human constitutive proteasome (c20S) ([19], [52]): Ac-RYFD-amc (Genscript) at 100 µM for Tv20S β1 subunit, Ac-FRSR-amc (Genscript) at 20 µM for Tv20S β2 subunit, Ac-GWYL-amc (Genscript) at 20 µM for Tv20S β5 subunit, z-LLE-amc (R&D Systems) at 80 µM for c20S β1 subunit, z-VLR-amc (AdipoGen Life Sciences) at 30 µM for c20S β2 subunit, and suc-LLVY-amc (R&D Systems) at 65 µM for c20S β5 subunit. Substrates and proteasomes were diluted in an assay buffer consisting of HEPES pH 7.5 and 1 mM DTT. For the human proteasome assays, 2 nM c20S was incubated at room temperature with 200 nM PA28α for 1 h to activate the complex prior to addition to the 384-well plates containing the substrate-inhibitor mixtures. […] Both proteasomes were added to the wells at a 1 nM final assay concentration. Fluorescence was measured over 4 h at 360 nm excitation and 460 nm emission on a Biotek Synergy HTX plate reader.

[3] = system: T. vaginalis Tv20S proteasome β2 subunit; assay: In vitro proteasome assay, Ac-FRSR-amc substrate; format: biochemical, Trichomonas vaginalis; settings: recombinant Tv20S, mean ± SD of three experiments; for IC50: read-out: Tv20S proteasome inhibition of β2 subunit (IC50)
Method: as §1

SMILES	IC50 [1] [nM]	Tv20S proteasome inhibition of β1 subunit (IC50) [2]	Tv20S proteasome inhibition of β2 subunit (IC50) [3]	IC50 [3] [nM]
CCCCCC(=O)N[C@@H](Cc1cccnc1)C(=O)N[C@@H](CCCC)C(=O)N[C@@H](Cc1ccccc1)C(=O)[C@@]1(C)CO1	34.4	Activation	No inhibition	–
COc1ccc(C[C@@H](C(=O)N[C@@H](CC(=O)N2CCCC2)C(=O)N[C@@H](Cc2ccc(F)cc2)C(=O)N[C@@H](Cc2ccc(F)cc2F)C(=O)[C@@]2(C)CO2)N2CCCC2=O)cc1	2.98	Activation	–	3550
CCCC[C@H](NC(=O)[C@H](CC(=O)N1CCCC1)NC(=O)[C@H](Cc1ccc(OC)cc1)N1CCCC1=O)C(=O)N[C@@H](Cc1ccc(F)cc1F)C(=O)[C@@]1(C)CO1 [compound 45]	2.93	Activation	–	1590
